A mixed list of measured activities; the numbers were collected in NIAID ChemDB.

All rows: growth or infection tests; agent: Adenovirus; read by: cytopathic effect; endpoint: EC50

ECn is the concentration giving n% inhibition of infection, replication or growth. Neighbouring rows are from separate reports. Blank or dashed fields: not listed here.

structure	strain	cells	value
Nc1ccn([C@@H]2CS[C@H](CO)O2)c(=O)n1	TYPE 2	HEL	>250 µM
Nc1ccn([C@H]2CC[C@@H](CO)O2)c(=O)n1	TYPE 11	BCC-1/KMC	14.2 µg/mL
Nc1ncnc2c1ncn2C[C@@H](CO)OCP(=O)(O)O	WT 300 (TYPE 5)	-	15 µg/mL
Nc1nc2c(ncn2C[C@]2(CO)C[C@H]2CO)c(=O)[nH]1	TYPE 2	HEL	297 µM
CCOP(=O)(O)CC(OCn1cc(C)c(=O)[nH]c1=O)C(C)O	TYPE 2	HEP-2	>320 µg/mL
O=C(O)[C@H]1O[C@@H](Oc2cc3oc(-c4ccccc4)cc(=O)c3c(O)c2O)[C@H](O)[C@@H](O)[C@@H]1O	TYPE 8	BCC-1/KMC	>50 µg/mL
Nc1cc(OC[C@@H](CO)OCP(=O)(O)O)nc(N)n1	TYPE 2	HEL	10 µM
NC(=O)c1c[se]c([C@@H]2O[C@H](CO)[C@@H](O)[C@H]2O)n1	Type 2/adenoid 6	HeLa	9 µg/mL
Nc1ccn(C[C@@H](CO)OCP(=O)(O)O)c(=O)n1	TYPE 2	HEL	2 µM
CC(O)C(CP(=O)(O)O)OCn1ccc(=O)[nH]c1=O	TYPE 2	HEP-2	>320 µg/mL
Nc1ncnc2c1ncn2C[C@@H](CO)OCP(=O)(O)O	3 TYPES	HEL	0.33 µg/mL
COc1cc(C(=O)O)ccc1O	TYPE 11	BCC-1/KMC	>200 µg/mL
Nc1ncnc2c1ncn2C[C@H]1COP(=O)(O)CO1	3 TYPES	HEL	0.37 µg/mL
NC(=O)c1ncn([C@@H]2O[C@H](CO)[C@@H](O)[C@H]2O)n1	TYPE 2	HeLa	12.5 µg/mL
O=c1[nH]cnc2c1ncn2CC(CO)OCP(=O)(O)O	3 TYPES	HEL	>125 µg/mL
CC1(C)CC[C@]2(C(=O)O)CC[C@]3(C)C(=CC[C@@H]4[C@@]5(C)CC[C@H](O)C(C)(C)[C@@H]5CC[C@]43C)[C@@H]2C1	TYPE 3	BCC-1/KMC	>40 µg/mL
Nc1ncnc2c1ncn2C[C@H](CO)OCP(=O)(O)O	adenoid 75 (TYPE 5)	-	10 µg/mL
Cc1cn(CC(CO)OCP(=O)(O)O)c(=O)[nH]c1=O	3 TYPES	HEL	>125 µg/mL
Nc1ccnc2c1ncn2[C@H]1C=C[C@@H](OCP(=O)(O)O)O1	adenoid 75 (TYPE 5)	-	100 µg/mL
Nc1ccn(C[C@@H](CO)OCP(=O)(O)O)c(=O)n1	3 TYPES	HEL	3.4 µg/mL
C[C@H]1[C@H](C)CC[C@]2(C(=O)O)CC[C@]3(C)C(=CC[C@@H]4[C@@]5(C)CC[C@H](O)C(C)(C)[C@@H]5CC[C@]43C)[C@H]12	TYPE 3	BCC-1/KMC	>20 µg/mL
O=c1[nH]c(=O)n([C@H]2C[C@H](O)[C@@H](CO)O2)cc1/C=C/Br	TYPE 2	HEL	>1000 µM
O=C(O)/C=C/c1ccc(O)cc1	TYPE 8	BCC-1/KMC	>200 µg/mL
O=c1[nH]cnc2c1ncn2CCOCP(=O)(O)O	3 TYPES	HEL	>125 µg/mL